Results of unrelated studies side by side (data: NIAID ChemDB).

All rows: tests on isolated targets; organism: HIV-1; target: Protease; measure: inhibition

Percent inhibition refers to the dose given; in toxicity tests it is the harm to the cells. Conditions beyond the fields shown may differ between rows. Blank or dashed fields: not listed here.

| SMILES | read by | tested at | result |
|---|---|---|---|
| CC(C)(C)NC(=O)[C@H]1N(C(=O)[C@@H](O)[C@H](Cc2ccccc2)NC(=O)c2ccccc2C(=O)NCc2ccncc2)CSC1(C)C | HPLC | 5 µM | 8% |
| CC(C)[C@H](N)C(=O)N[C@H](C(=O)N[C@@H](Cc1ccccc1)[C@H](O)C(=O)N[C@H](Cc1ccccc1)C(=O)N[C@@H](C(=O)N[C@@H](C(N)=O)C(C)C)C(C)C)C(C)C | - | 1000 µM | 47.1% |
| CCOC(=O)[C@H](CC(C)C)NC(=O)[C@H](Cc1ccccc1)NC(=O)[C@@H](O)[C@H](Cc1ccccc1)NC(=O)OC(C)(C)C | HPLC | 27 µM | 0% |
| CC[C@H](NC(=O)[C@@H](NC(=O)[C@H](Cc1c[nH]c2ccccc12)NC(=O)OCc1ccccc1)C(C)C)[C@@H](O)CC(=O)N[C@@H](C)C(=O)NC(CC(C)C)[C@@H](O)CC(=O)OC | fluorescence | 1 µM | 0% |
| CC(C)[C@H](NC(=O)COc1cccc2ccccc12)C(=O)N[C@@H](Cc1ccccc1)[C@H](O)C(=O)N1CSC[C@H]1C(=O)NC(C)(C)C | - | 0.05 µM | 94.5% |
| CC(C(=O)O)C(C)C(=O)N[C@@H](Cc1ccccc1)[C@H](O)C(=O)N1CSC(C)(C)[C@H]1C(=O)NC(C)(C)C | - | 0.05 µM | 77.5% |
| CC[C@@H](C)[C@H](NC(=O)[C@@H]1CCCN1C(=O)[C@@H](O)[C@H](CC1CCCCC1)NC(=O)[C@H](CC(N)=O)NC(=O)c1cccs1)C(=O)N[C@H](C(N)=O)C(C)C | - | 5 µM | 95.1% |
| C=CSC(NC(=O)[C@H](Cc1ccccc1)NS(=O)(=O)N1CCOCC1)C(=O)N[C@@H](CC1CCCCC1)[C@@H](O)C[C@H](C(=O)NCCCC)C(C)C | HPLC | 0.1 µM | 54% |
| CC(C)(C)NC(=O)[C@H]1N(C(=O)[C@@H](O)[C@H](Cc2ccccc2)NC(=O)c2ccccc2C(=O)NCc2ccccn2)CSC1(C)C | HPLC | 5 µM | 25.7% |
| CC(O)[C@H](NC(=O)CCCCCCCCCCCCCCC(=O)N[C@@H](CC(N)=O)C(=O)N[C@@H](Cc1ccccc1)C(=O)O)C(=O)N[C@@H](CC(N)=O)C(=O)N[C@@H](Cc1ccccc1)C(N)=O | - | 5.5 µM | 5% |
| CCOC(=O)[C@@]1(C)CC[C@]2(C)CC[C@]3(C)C(=CC(=O)[C@@H]4[C@@]5(C)CC/C(=N\OCc6cccc(Br)c6)C(C)(C)[C@@H]5CC[C@]43C)[C@@H]2C1 | substrate cleavage / fluorescence | 1000 µg/mL | 25.5% |
| CC(C)(C)NC(=O)[C@@H]1[C@@H](c2ccccc2)CCN1C(=O)[C@@H](O)[C@H](Cc1ccccc1)NC(=O)[C@H](CC(N)=O)NC(=O)OCc1ccccc1 | - | 0.05 µM | 83.2% |
| CCOC(=O)[C@@]1(C)CC[C@]2(C)CC[C@]3(C)C(=CC(=O)[C@@H]4[C@@]5(C)CC/C(=N\OCc6ccc(Br)cc6)C(C)(C)[C@@H]5CC[C@]43C)[C@@H]2C1 | substrate cleavage / fluorescence | 1000 µg/mL | 26.8% |
| CC(C)(C)OC(=O)N[C@@H](Cc1ccccc1)[C@H](O)C(=O)N1CCC[C@H]1C(=O)NCC1CCCCC1 | - | 1000 µM | 42.5% |
| CCOC(=O)[C@@]1(C)CC[C@]2(C)CC[C@]3(C)C(=CC(=O)[C@@H]4[C@@]5(C)CC/C(=N\OCc6ccsc6)C(C)(C)[C@@H]5CC[C@]43C)[C@@H]2C1 | substrate cleavage / fluorescence | 1000 µg/mL | 76% |
| CC(C)[C@H](NC(=O)COc1cccnc1)C(=O)N[C@@H](Cc1ccccc1)[C@H](O)C(=O)N1CSC[C@H]1C(=O)NC(C)(C)C | - | 0.05 µM | 52.8% |
| Cc1ccccc1CNC(=O)[C@H]1N(C(=O)[C@@H](O)[C@H](Cc2ccccc2)NC(=O)c2ccccc2C(=O)NCc2ccccn2)CSC1(C)C | HPLC | 5 µM | 69.6% |
| CC(C)C[C@H](NC(=O)[C@@H](NC(=O)CCCCCCCCCCCCCCC(=O)N[C@@H](CC(N)=O)C(=O)N[C@@H](Cc1ccccc1)C(=O)O)C(C)O)C(=O)N1CCC[C@H]1C(=O)O | - | 5.5 µM | 15% |
| CC(C)(C)OC(=O)NC(=O)N(Cc1ccccc1)CC(O)CN(Cc1ccccc1)C(=O)NC(=O)OC(C)(C)C | - | 10 µM | 28% |
| CC(C)C[C@H](NC(=O)[C@H](CCC(N)=O)NC(=O)CCCCCCCCCCCCCCC(=O)N[C@@H](CC(N)=O)C(=O)N[C@@H](Cc1ccccc1)C(=O)O)C(=O)N[C@@H](Cc1ccccc1)C(N)=O | - | 5.5 µM | 30% |
| CC(C)CN(CC(O)CN(CC(C)C)C(=O)NC(C)(C)C)C(=O)NC(C)(C)C | - | 10 µM | 25% |
| CC[C@H](C)[C@H](NC(=O)[C@@H]1CCCN1C(=O)[C@@H](O)[C@H](Cc1ccccc1)NC(=O)[C@H](CO)NC(=O)Cc1ccccc1)C(=O)N[C@H](C(N)=O)C(C)C | - | 1000 µM | 72.3% |
| COC(=O)[C@H](NC(=O)N(Cc1ccccc1)CC(O)CN(Cc1ccccc1)C(=O)N[C@@H](C(=O)OC)C(C)C)C(C)C | - | 10 µM | 16% |
| CC(C)(C)NC(=O)[C@@H]1CSCN1C(=O)[C@@H](O)[C@H](Cc1ccccc1)NC(=O)C(C)(C)CC(=O)O | - | 5 µM | 61.3% |
| CCOC(=O)[C@@]1(C)CC[C@]2(C)CC[C@]3(C)C(=CC(=O)[C@@H]4[C@@]5(C)CC/C(=N\OCc6ccc(C)cc6)C(C)(C)[C@@H]5CC[C@]43C)[C@@H]2C1 | substrate cleavage / fluorescence | 1000 µg/mL | 1% |
| CC[C@@H](C)[C@H](NC(=O)[C@@H]1CCCN1C(=O)[C@@H](O)[C@H](CC1CCCCC1)NC(=O)[C@H](CC(N)=O)NC(=O)OCC1c2ccccc2-c2ccccc21)C(=O)N[C@H](C(N)=O)C(C)C | - | 5 µM | 99% |
| CC(C)(C)NC(=O)N(Cc1cccc(O)c1)CC(O)CN(Cc1cccc(O)c1)C(=O)NC(C)(C)C | - | 10 µM | 67% |
| CC(C)(C)NC(=O)[C@@H]1CSCN1C(=O)[C@@H](O)[C@H](Cc1ccccc1)NC(=O)CCC(=O)O | - | 5 µM | 73.7% |
| Cc1ccccc1CNC(=O)[C@H]1N(C(=O)[C@@H](O)[C@H](Cc2ccccc2)NC(=O)c2ccccc2C(=O)NCc2cccnc2)CSC1(C)C | HPLC | 5 µM | 59.6% |
| CC(C)C[C@H](NC(=O)[C@@H](NC(=O)CCCCCCCCCCCCCCC(=O)N[C@@H](CCC(N)=O)C(=O)N[C@@H](Cc1ccccc1)C(=O)O)C(C)O)C(=O)N[C@@H](Cc1ccccc1)C(N)=O | - | 5.5 µM | 35% |
| CC(C)(C)NC(=O)N(Cc1cccc(O)c1O)CC(O)CN(Cc1cccc(O)c1O)C(=O)NC(C)(C)C | - | 10 µM | 67% |
| CC[C@@H](C)[C@H](NC(=O)[C@@H]1CCCN1C(=O)[C@@H](O)[C@H](CC1CCCCC1)NC(=O)[C@H](CC(N)=O)NC(=O)c1cnccn1)C(=O)N[C@H](C(N)=O)C(C)C | - | 5 µM | 93.8% |
| CCOC(=O)[C@@]1(C)CC[C@]2(C)CC[C@]3(C)C(=CC(=O)[C@@H]4[C@@]5(C)CC/C(=N\OCc6ccc(F)c(F)c6)C(C)(C)[C@@H]5CC[C@]43C)[C@@H]2C1 | substrate cleavage / fluorescence | 1000 µg/mL | 38.5% |
| CC(C)(C)N(Cc1ccccc1)C(=O)NCC(O)CNC(=O)N(Cc1ccccc1)C(C)(C)C | - | 50 µM | 17.5% |
| CC(C)(C)NC(=O)[C@@H]1CSCN1C(=O)[C@@H](O)[C@H](Cc1ccccc1)NC(=O)CCCC(=O)O | - | 5 µM | 81.9% |
| COc1cccc2cc(C(=O)N[C@@H](Cc3ccccc3)[C@H](O)C(=O)N3CSC(C)(C)[C@H]3C(=O)NCc3ccccc3C)oc12 | HPLC | 5 µM | 53.2% |
| CC(C)(C)NC(=O)N(Cc1ccccc1O)CC(O)CN(Cc1ccccc1O)C(=O)NC(C)(C)C | - | 10 µM | 11% |

The last 4 rows once more:

SMILES	read by	tested at	result
CC(C)(C)N(Cc1ccccc1)C(=O)NCC(O)CNC(=O)N(Cc1ccccc1)C(C)(C)C	-	50 µM	17.5%
CC(C)(C)NC(=O)[C@@H]1CSCN1C(=O)[C@@H](O)[C@H](Cc1ccccc1)NC(=O)CCCC(=O)O	-	5 µM	81.9%
COc1cccc2cc(C(=O)N[C@@H](Cc3ccccc3)[C@H](O)C(=O)N3CSC(C)(C)[C@H]3C(=O)NCc3ccccc3C)oc12	HPLC	5 µM	53.2%
CC(C)(C)NC(=O)N(Cc1ccccc1O)CC(O)CN(Cc1ccccc1O)C(=O)NC(C)(C)C	-	10 µM	11%